System: Staphylococcus aureus
Assay: Noncompetitive inhibition of Staphylococcus aureus ATCC 25923 replicative DnaB helicase using Hel-5'FAM:Hel-3'BHQ as substrate assessed as DNA duplex strand-unwinding by FRET assay

Cc1c(CCC(=O)O)c(=O)oc2c(C)c(OCc3ccc(-c4ccccc4)cc3)ccc12
Kiuc: 4 µM

From ChEMBL document CHEMBL2177067 (J Med Chem, 2012)
